Test results taken from paper doi:10.1101/2020.02.11.944462.

Target: 2019-nCoV S prefusion-stabilized ectodomain (residues 1-1208, two proline substitutions, GSAS at the (2019-nCoV | bacteriophage T4))
Experiment: SPR

human angiotensin-converting enzyme 2 (ACE2), residues 1-615, untagged (from UniProt Q9BYF1 18-615) (receptor)
fold higher affinity than ACE2 binding to SARS-CoV S: 10 fold and 20 fold

“And” between values parts separate entries of the source, which are not always exact repeats. Equal entries are not always repeated.
